Measured data: PubChem BioAssay AID1259414 (Drosophila RNAi Screening Center, 2018)
Purpose: 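Genome-wide screen for host control of endosymbiont load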 (primary screen). Cell system: Drosophila JW18 cells infected with Wolbachia. Reagents: long dsRNA against Drosophila genes, 0.25 µg dsRNA per well of a 384-well plate. Time to read-out: 5 days. Treatment: cells persistently infected with Wolbachia before knock-down; no added drug. Detection: 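Automated imaging of bacterial rRNA staining divided by host cell count, reported as plate-normalised robust z-score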. Scale: Wolbachia per cell robust z: higher = more Wolbachia per host cell than the plate typical. Hit rule: 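Active if absolute robust z reaches 1.5 in two or more of three replicates, leaving out multi- or no-target dsRNAs, genes unexpressed in JW18 and A1 wells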.
In all, the deposit lists about 24,000 reagents; this is a random part of those with a known target gene and a result. Of all reagents, about 1,210 (5%) got an active call. 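Inactive calls also include excluded dsRNAs with several or no targets, genes unexpressed in JW18, and well A1, regardless of score.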 Reagents against one gene are numbered here. A plus sign joins genes that one reagent is predicted to hit.

For ppk18 #1, the entry reads Wolbachia per cell robust z, rep 1 = 1.42; Wolbachia per cell robust z, rep 2 = 0.468; Wolbachia per cell robust z, rep 3 = 0.858; inactive.
With knock-down of ppk18 #2, the screen gave Wolbachia per cell robust z, rep 1 = 1.08; Wolbachia per cell robust z, rep 2 = 0.174; Wolbachia per cell robust z, rep 3 = -0.0287; inactive.
CG8768 showed Wolbachia per cell robust z, rep 1 = -0.63; Wolbachia per cell robust z, rep 2 = 0.467; Wolbachia per cell robust z, rep 3 = 0.313; inactive.
After knock-down of Ir7f, the screen gave Wolbachia per cell robust z, rep 1 = -0.428; Wolbachia per cell robust z, rep 2 = 0.623; Wolbachia per cell robust z, rep 3 = 0.435; inactive.
Knock-down of Prosbeta5R1 #1 resulted in: Wolbachia per cell robust z, rep 1 = -0.177; Wolbachia per cell robust z, rep 2 = -4.02; Wolbachia per cell robust z, rep 3 = 0.424; inactive.
Silencing of Prosbeta5R1 #2 came out at: Wolbachia per cell robust z, rep 1 = 0.323; Wolbachia per cell robust z, rep 2 = 0.833; Wolbachia per cell robust z, rep 3 = -0.144; inactive.
Against asRNA:CR43467 + Or46a #1, the values are Wolbachia per cell robust z, rep 1 = -0.448; Wolbachia per cell robust z, rep 2 = -0.308; Wolbachia per cell robust z, rep 3 = -0.551; inactive.
Silencing of asRNA:CR43467 + Or46a #2 came out at: Wolbachia per cell robust z, rep 1 = -3.72; Wolbachia per cell robust z, rep 2 = 0.686; Wolbachia per cell robust z, rep 3 = 0.19; inactive.
Against asRNA:CR43467 + Or46a #3, the values are Wolbachia per cell robust z, rep 1 = 0.982; Wolbachia per cell robust z, rep 2 = 1.25; Wolbachia per cell robust z, rep 3 = 1.11; inactive.
For CG3982 #1, the values are Wolbachia per cell robust z, rep 1 = 0.857; Wolbachia per cell robust z, rep 2 = 0.25; Wolbachia per cell robust z, rep 3 = -2.73; inactive.
Against CG3982 #2, the entry reads Wolbachia per cell robust z, rep 1 = 1.23; Wolbachia per cell robust z, rep 2 = 1.76; Wolbachia per cell robust z, rep 3 = 0.061; inactive.
Against Cds + Setx, the entry reads Wolbachia per cell robust z, rep 1 = 0.792; Wolbachia per cell robust z, rep 2 = -0.289; Wolbachia per cell robust z, rep 3 = -0.71; inactive.

2 entries from above, set out differently:
{"predicted target":"ppk18","reagent no.":2,"Wolbachia per cell robust z, rep 1":1.08,"Wolbachia per cell robust z, rep 2":0.174,"Wolbachia per cell robust z, rep 3":-0.0287,"call":"inactive"}
{"predicted target":"CG8768","reagent no.":1,"Wolbachia per cell robust z, rep 1":-0.63,"Wolbachia per cell robust z, rep 2":0.467,"Wolbachia per cell robust z, rep 3":0.313,"call":"inactive"}
